In article PMC12060211, “Development of Efficient Covalent Inactivators of a Fungal Aspartate Semialdehyde Dehydrogenase” (Drug Development Research, 2025) one finds KI (inactivation) data, which are given here for two molecules.

The chains behind the UniProt entries cited, without tags or fusion partners.
UniProt Q5ALM0, whole entry: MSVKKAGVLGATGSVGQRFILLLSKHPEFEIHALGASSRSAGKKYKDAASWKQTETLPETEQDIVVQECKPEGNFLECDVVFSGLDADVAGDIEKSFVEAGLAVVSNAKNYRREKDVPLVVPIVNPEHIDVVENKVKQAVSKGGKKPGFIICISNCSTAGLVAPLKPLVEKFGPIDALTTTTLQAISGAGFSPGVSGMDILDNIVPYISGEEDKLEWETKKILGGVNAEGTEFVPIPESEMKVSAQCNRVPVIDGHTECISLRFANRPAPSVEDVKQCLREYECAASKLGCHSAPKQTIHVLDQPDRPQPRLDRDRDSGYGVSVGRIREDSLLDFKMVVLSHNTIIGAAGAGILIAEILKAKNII

This assay concerns the target CalASADH (C. albicans ASADH, aspartate semialdehyde dehydrogenase) (Candida albicans, UniProt Q5ALM0). The experiment in a line: time-dependent inactivation, NADPH formation at […] nm, kobs = kinact[I]/(Ki+[I]). Particulars: read-out: Ki; covalent; irreversible inactivation; residual activity read at pH 8.6 with 0.3 mM L-aspartate-beta-semialdehyde, 20 mM phosphate, 1.5 mM NADP; tested form: HCl.

The structures given here were assigned with low confidence; some may be wrong.

For `NC(=O)/C=C/C[C@H](N)C(=O)O`, the KI (inactivation) came out at 1460 nM.
The figure for `CN(C)C(=O)/C=C/C[C@H](N)C(=O)O` is 1430 nM.
